Anti-infective test results gathered from many reports (values: NIAID ChemDB through PubChem).

Shared fields: tests in culture; organism: Hepatitis C virus; endpoint: EC50

ECn is the concentration giving n% inhibition of infection, replication or growth. Lines come from different laboratories, so protocols vary. a–b is a range or a potency band.

CCOC(=O)[C@@H](NC(=O)N[C@H](C(=O)N1CC[C@H]2[C@H]1C(C1CCC1)C(=O)N2C(=O)C1CC1)C(C)C)C(C)C ; cell line: Huh7 ; method: ELISA ; value: 0.3 µM
COC(=O)N[C@H](C(=O)N1CCC[C@H]1c1ncc(-c2ccc(-c3ccc(-c4cnc([C@@H]5CCCN5C(=O)[C@@H](NC(=O)OC)C(C)C)[nH]4)cc3)cc2)[nH]1)C(C)C ; cell line: Huh7 ; strain: GT2a ; method: luciferase / replicon ; value: 0.00015 µM
Fc1cccc(-c2nc3cn[n+](Cc4cc(-c5ccc(C(F)(F)F)cc5C(F)(F)F)no4)cc3[nH]2)c1 ; cell line: Huh-luc/neo-ET ; strain: genotype 1b ; method: replicon ; value: 50 µM
CNC(=O)c1c(-c2ccc(F)cc2)oc2cc(N(CCO)S(C)(=O)=O)c(C3CC3)cc12 ; cell line: Huh7 ; method: replicon ; value: <1 µM
CC(C)[C@H](NC(=O)N[C@H](C(=O)N1CC[C@H]2[C@H]1C1(CCC1)C(=O)N2C(=O)C1CC1)C(C)C)C(=O)OC(C)(C)C ; value: 0.48 µM
CC1CCC(C(=O)N(c2cc(-c3ccc(NC(=O)c4cccnn4)cc3)sc2C(=O)O)C2CCC2)CC1 ; strain: 1a ; method: replicon ; value: <0.5 µM
C=C[C@H]1C[C@@]1(NC(=O)[C@H]1C[C@@H](Oc2nc(-c3ccccc3)cc3ccccc23)CN1C(=O)[C@@H](NC(=O)OC(C)(C)C)[C@@H](C)OCc1ccccc1)C(=O)NS(=O)(=O)C1CC1 ; cell line: Huh7 ; strain: BMS ; method: replicon ; value: 0.1–1 µM
CC1CCC(C(=O)N(CC2CC2)c2cc(-c3ccc(NC(=O)c4cscn4)cc3)sc2C(=O)O)CC1 ; strain: 1a ; method: replicon ; value: <0.5 µM
C=CC[C@](C)(NC(=O)[C@H]1C[C@@H](Oc2n[nH]c(=O)c3ccccc23)CN1C(=O)[C@@H](NC(=O)OC(C)(C)C)C(C)(C)C)C(=O)NS(=O)(=O)C1CC1 ; cell line: Huh7 ; strain: BMS ; method: replicon ; value: 1–10 µM
Cc1cnccc1C(=O)Nc1ccc(-c2cc(N(C(=O)C3CCC(C)CC3)C(C)C)c(C(=O)O)s2)cc1 ; strain: 1a ; method: replicon ; value: >0.5 µM
CC(C)[C@H](NC(=O)NCC(F)(F)F)C(=O)N1CC[C@H]2[C@H]1C1(CCC1)C(=O)N2C(=O)C1CC1 ; value: 3.5 µM
CCCOc1ccc(-c2cc(C[n+]3cc4[nH]c(-c5cccc(F)c5F)nc4cn3)on2)c(C(F)(F)F)c1 ; cell line: Huh-luc/neo-ET ; strain: Genotype 1A ; method: replicon ; value: 0.022 µM
CNC(=O)c1c(-c2ccc(F)cc2)oc2cc(Br)c(OC)cc12 ; cell line: Huh7 ; method: replicon ; value: <1 µM
C=C[C@H]1C[C@@]1(NC(=O)[C@H]1C[C@@H](Oc2nccc3ccccc23)CN1C(=O)[C@@H](NC(=O)C(=O)CCOC)C(C)(C)C)C(=O)NS(=O)(=O)C1CC1 ; cell line: Huh7 ; strain: BMS ; method: replicon ; value: 1–10 µM
CC1CCC(C(=O)N(c2cc(-c3ccc(NC(=O)c4nccn4C)cc3)sc2C(=O)O)C(C)C)CC1 ; strain: 1a ; method: replicon ; value: <0.5 µM
CC(C)[C@H](NC(=O)N[C@H](CO)C(C)C)C(=O)N1CC[C@H]2[C@H]1C1(CCC1)C(=O)N2C(=O)C1CC1 ; value: 0.5 µM
CN1CCN([C@@H](C(=O)N2CCC[C@H]2C(=O)Nc2ccc(C#Cc3ccc(NC(=O)[C@@H]4CCCN4C(=O)[C@@H](c4ccccc4)N4CCN(C)CC4)cc3)cc2)c2ccccc2)CC1 ; cell line: Huh7 ; strain: GT1a ; method: ELISA ; value: <0.0046 µM
O=c1cc(OCc2cccc(Cl)c2)oc2cc(-c3ccccc3)c(OCc3cccc(Cl)c3)c(O)c12 ; cell line: Huh 5-2 ; method: luciferase ; value: 13 µM
CCNC(=O)N[C@H](C(=O)N1CC[C@H]2[C@H]1C1(CCC1)C(=O)N2C(=O)C1CC1)C(C)C ; value: 4.5 µM
CNC(=O)c1c(-c2ccc(F)cc2)oc2ccc(C)cc12 ; cell line: Huh7 ; method: replicon ; value: <10 µM
CCCOc1ccc(-c2cnc(Cn3cc4nc(-c5cccc(F)c5F)nc-4cn3)cn2)c(C(F)(F)F)c1 ; cell line: Huh-luc/neo-ET ; strain: genotype 1b ; method: replicon ; value: 0.032 µM
OC[C@H]1O[C@@H](n2cnc3c(CCSC4=NCCS4)ncnc32)[C@H](O)[C@@H]1O ; cell line: Huh7 (MT-4) ; strain: 1b ; setting: genotype 1b ; method: replicon ; value: >100 µM
CNC(=O)c1c(-c2ccc(C)cc2)oc2ccc(Cl)cc12 ; cell line: Huh7 ; method: replicon ; value: <10 µM
N#Cc1cccc(COc2cc(=O)c3c(O)c(OCc4cccc(C#N)c4)c(-c4ccccc4)cc3o2)c1 ; cell line: Huh 5-2 ; method: luciferase ; value: 42 µM
CC(C)[C@H](NC(=O)N[C@H](C(=O)N1CC[C@H]2[C@H]1C(C1CCC1)C(=O)N2C(=O)C1CC1)C(C)C)C(=O)N1CCN(c2ncccn2)CC1 ; cell line: Huh7 ; method: ELISA ; value: 0.45 µM
C=CC[C@](C)(NC(=O)[C@H]1C[C@@H](Oc2nc(Br)c(O)c3ccccc23)CN1C(=O)[C@@H](NC(=O)OC(C)(C)C)C(C)(C)C)C(=O)NS(=O)(=O)C1CC1 ; cell line: Huh7 ; strain: BMS ; method: replicon ; value: 0.1–1 µM
O=C(Nc1ccc(-c2cc(N(CC3CC3)C(=O)C3CCC(C(F)(F)F)CC3)c(C(=O)O)s2)cc1)c1cscn1 ; strain: 1a ; method: replicon ; value: <0.5 µM
C[C@@H]1CCCC[C@H]1n1c(-c2ccccn2)nc2cc(C(=O)NC3(C(=O)Nc4ccc(/C=C/C(=O)O)cc4)CCCC3)ccc21 ; cell line: Huh7 ; value: ≤5 µM
CNC(=O)c1c(-c2ccc(F)cc2)oc2cc(C3CCCN3C(=O)NC)c(OC)cc12 ; cell line: Huh7 ; method: replicon ; value: <10 µM
Nc1ccn([C@@H]2O[C@H](CO)[C@@H](O)C23CC3)c(=O)n1 ; cell line: Huh7 ; strain: 1b ; method: luciferase ; value: 7.3 µM
CCCCCCCCCCCCCCOC(=O)NC(CCC(=O)O)(CCC(=O)O)CCC(=O)O ; cell line: Huh7-Luc ; strain: 1b ; method: replicon / PCR ; value: 0.013 µM
CC(NC(=O)c1ccc2c(c1)nc(-c1ccoc1)n2C1CCCCC1)C(=O)Nc1ccc(-c2ccc(C(=O)O)o2)cc1 ; cell line: Huh7 ; value: 5–50 µM
O=c1cc(OCc2ccc(Cl)cc2)oc2cc(-c3ccccc3)c(OCc3ccc(Cl)cc3)c(O)c12 ; cell line: Huh 5-2 ; method: luciferase ; value: 9 µM
CC(C)[C@H](NC(N)=O)C(=O)N1CC[C@H]2[C@H]1C1(CCC1)C(=O)N2C(=O)C1CC1 ; value: 2.2 µM
CNC(=O)c1c(-c2ccc(F)cc2)oc2cc(C#N)c(OC)cc12 ; cell line: Huh7 ; method: replicon ; value: <1 µM
C=CC[C@](C)(NC(=O)[C@H]1C[C@@H](Oc2nc(Br)c(OC)c3ccccc23)CN1C(=O)[C@@H](NC(=O)OC(C)(C)C)C(C)(C)C)C(=O)NS(=O)(=O)C1CC1 ; cell line: Huh7 ; strain: BMS ; method: replicon ; value: <0.1 µM
OC[C@H]1O[C@@H](n2cnc3c(CCSC4CCCCC4)ncnc32)[C@H](O)[C@@H]1O ; cell line: Huh7 (MT-4) ; strain: 1b ; setting: genotype 1b ; method: replicon ; value: >100 µM
C=CCC(NC(=O)[C@H]1C[C@@H](Oc2cc(C(F)(F)F)nc3c(C(F)(F)F)cccc23)CN1C(=O)[C@@H](NC(=O)OC(C)(C)C)C(C)(C)C)C(=O)NS(=O)(=O)C1CC1 ; cell line: Huh7 ; strain: BMS ; method: replicon ; value: 0.1–1 µM
O=c1cc(OCc2cccc(Br)c2)oc2cc(-c3ccccc3)c(OCc3cccc(Br)c3)c(O)c12 ; cell line: Huh 5-2 ; method: luciferase ; value: 52 µM
O=c1c(O)c(-c2ccc(O)c(O)c2)oc2cc(O)c(O)c(O)c12 ; strain: genotype 1b ; method: replicon ; value: 5 µM
C[C@@H](NC(=O)c1ccc2c(c1)nc(-c1ccc[nH]1)n2C1CCCCC1)C(=O)Nc1ccc(/C=C/C(=O)O)cc1 ; cell line: Huh7 ; value: 5–50 µM
O=C(O)c1ccc2c(C3CCCCC3)c(-c3ccccc3)n(CC(=O)N3CCOCC3)c2c1 ; value: 0.38 µM
CNC(=O)c1c(-c2ccc(F)cc2)oc2cc(N3CCOCC3)c(OCc3noc(-c4ccc(OC)cc4)n3)cc12 ; cell line: Huh7 ; method: replicon ; value: <1 µM
O=C(O)/C=C/c1ccc(NC(=O)C2(NC(=O)c3ccc4c(c3)nc(-c3ccco3)n4C3CCCCC3)CCCC2)cc1 ; cell line: Huh7 ; value: ≤5 µM